A mixed list of measured activities; the numbers were collected in NIAID ChemDB.

Common to all: cytotoxicity tests; cells: PBMC; measure: CC50

Lines come from different laboratories, so protocols vary.

smiles	result
Nc1ncnc2c1ncn2CCOCP(=O)(O)O	>100 µM
CC(=O)Oc1c(-c2c(C)cc3c(C(C)C)c(O)c(O)c(C#N)c3c2OC(C)=O)c(C)cc2c(C(C)C)c(O)c(O)c(C#N)c12	>100 µM
O=c1nc2oc(-c3ccccc3)cc2cn1COCCO	>100 µM
CCN1c2ncccc2N(C)C(=S)c2oc3cccnc3c21	>60 µM
CC(=O)Oc1c(OC(C)=O)c2c3c(c(-c4c(C)cc5c(C(C)C)c(OC(C)=O)c(OC(C)=O)c6c5c4OC6OC(C)=O)c(C)cc3c1C(C)C)OC2OC(C)=O	>100 µM
C[C@H](Cn1cnc2c(N)ncnc21)OCP(=O)(O)O	1200 µM
OC[C@@H]1CC[C@H](n2cnc3c(=S)nc[nH]c32)O1	100 µM
CCCCCCCCCc1ccc(OCCOCCOCCOCCOCCOCCOCCOCCOCCO)cc1	25 µg/mL
COCC(=O)N[C@H](C(=O)N[C@@H](Cc1ccccc1)[C@H]1O[C@H]1CC(=O)NC(Cc1ccccc1)C(C)C)C(C)(C)S(C)(=O)=O	>10 µM
COc1cc(Cn2c(=O)ccn(CC#N)c2=O)cc(OC)c1	>415 µM
CC(C)=CCN1Cc2cc(Cl)cc3[nH]c(=S)n(c23)C[C@@H]1C	20 µM
Cc1cn([C@H]2C[C@H](F)[C@@H](CO)O2)c(=S)[nH]c1=O	>200 µM
C[C@]1(/C=C/P(=O)(O)O)CO[C@@H](n2cnc3c(=O)[nH]c(N)nc32)C1	>100 µM
CC(C)Nc1cccnc1N1CCN(C(=O)c2cc3cc(NS(C)(=O)=O)ccc3[nH]2)CC1	90 µM
Nc1nc(=O)n([C@H]2C=C[C@@H](CO)C2)cc1F	>100 µM
CCCCCCCCCCCCCCCCCCCCCCOCC(C)(COCCCCCCCCCCCCCCCCCCCCCC)CO[C@]1(C(=O)O)C[C@H](OS(=O)(=O)O)[C@@H](NC(C)=O)[C@H]([C@H](OS(=O)(=O)O)[C@@H](COS(=O)(=O)O)OS(=O)(=O)O)O1	>200 µM
Cc1ccc(CCNC(=S)Nc2ccc(Br)cn2)cc1	>100 µM
CCCC(=O)c1c(O)c(CC2(C)C(=O)C(C(=O)C(C)CC)=C(O)C(C)=C2O)c(O)c(C)c1OC	>100 µM
O=c1[nH]c(=O)n([C@H]2C=C[C@@H](CO)O2)cc1F	32.2 µM
S=C(NCCN1CCNCC1)Nc1ccc(Br)cn1	>100 µM
CC(C)C(Cc1ccccc1)NC(=O)C[C@@H]1O[C@@H]1[C@H](Cc1ccccc1)NC(=O)[C@@H](NC(=O)c1ccccn1)C(C)(C)S(C)(=O)=O	>10 µM
O=c1[nH]c(=O)n([C@@H]2O[C@H](CO)[C@@H](O)[C@@H]2F)cc1C12B3B4B5B6B(B3B1B42)B1B5C61	≥100 µM
C[C@@H]1O[C@@H](OC[C@H]2O[C@@H](Oc3c(-c4ccc(OS(=O)(=O)O)c(OS(=O)(=O)O)c4)oc4cc(OS(=O)(=O)O)cc(OS(=O)(=O)O)c4c3=O)[C@H](OS(=O)(=O)O)[C@@H](OS(=O)(=O)O)[C@@H]2OS(=O)(=O)O)[C@H](OS(=O)(=O)O)[C@H](OS(=O)(=O)O)[C@H]1OS(=O)(=O)O	2589 µM
Cc1cc(Cl)nc(C)c1C(=O)NCC[C@@H](C)N1CCC(N(Cc2ccsc2)C(=O)Nc2ccc(C(O)O)cc2)CC1	>32.2 µM
Cc1ccc(-c2ccc3c(c2)C=C(C(=O)Nc2ccc(C[N+](C)(C)C4CCOCC4)cc2)CCC3)cc1	>20 µM
CCNc1ncnc2c1ncn2[C@H]1CC[C@@H](CO)O1	100 µM
CCCCCC#Cc1cn(COCCO)c(=O)[nH]c1=O	>100 µM
CCc1nc2sccn2c1C(=O)c1ccco1	>100 µM
CCn1cc(C(=O)O)c(=O)c2cc(F)c(N3CCN(c4ccccc4OC)CC3)c(OC(F)F)c21	11 µM
CN(CCc1ccc2c(n1)NCCC2)C(=O)Oc1ccc(C(F)(F)F)cc1	4.7 µM
Cc1cc2c(C(C)C)c(O)c(O)c(C=NCCS(=O)(=O)O)c2c(O)c1-c1c(C)cc2c(C(C)C)c(O)c(O)c(C=NCCS(=O)(=O)O)c2c1O	>100 µM
CCCC(=O)OC[C@@H]1C=C[C@H](n2cc(F)c(N)nc2=O)O1	>100 µM
CCCCCCCC/C=C\CCCCCCCC(=O)NCCCOc1c(Br)cc(CCNC(=O)CCCCCCCCCCCCC(C)C)cc1Br	>100 µM
N#CCn1ccc(=O)n(Cc2c(F)cccc2F)c1=O	>451 µM
CCCCCCCCC#Cc1cn(C/C=C/C(O)CO)c(=O)[nH]c1=O	59.2 µM
CC(C)C(Cc1ccccc1)NC(=O)C[C@@H]1O[C@@H]1[C@H](Cc1ccccc1)NC(=O)[C@@H](NC(=O)OCC1CC1)C(C)(C)S(C)(=O)=O	>10 µM
CCC(=O)c1ccc(F)c([C@H]2C[C@H]2NC(=O)Nc2ccc(C#N)cn2)c1O	36 µM
CNc1cccc(CCNC(=O)NCc2ccc(Cl)c(Cl)c2)n1	50 µM
CN(C)c1ncnc2c1ncn2[C@H]1CC[C@@H](CO)O1	100 µM
COC(=O)[C@H](C)NP(=O)(OC[C@H]1C/C1=C/n1cnc2c(N)nc(N)nc21)Oc1ccccc1	13 µM
O=c1[nH]cnc2c1ncn2[C@@H]1O[C@H](CO)C=C1F	92.7 µM
Cc1cc2c(C(C)C)c(O)c(O)c(/C=N/O)c2c(O)c1-c1c(C)cc2c(C(C)C)c(O)c(O)c(/C=N/O)c2c1O	>100 µM
Fc1ccccc1CCNC(=S)Nc1ccc(Br)cn1	>100 µM
Nc1nc(=O)n([C@@H]2CS[C@H](CO)O2)cc1F	>100 µM
Cc1cn([C@H]2C[C@H](F)[C@@H](COP(=O)(O)O)O2)c(=S)[nH]c1=O	>200 µM
Cc1cn([C@H]2C[C@H](N=[N+]=[N-])[C@@H](CO)O2)c(=O)[nH]c1=O	>100 µM
Nc1ccc(-c2c3nc(c(-c4ccc(N)cc4)c4ccc([nH]4)c(-c4ccc(N)cc4)c4nc(c(-c5ccc(N)cc5)c5ccc2[nH]5)C=C4)C=C3)cc1	>200 µM
O=C(CO)N[C@@H]([C@@H](O)[C@H](O)[C@H](O)CO)[C@@H](O)C(=O)C(=O)O	>1000 µM
Cn1c(O)c(C2=c3ccccc3=NC2=O)c2ccccc21	>100 µM
CN(C)c1ccc(-c2c3nc(c(-c4ccc(N(C)C)cc4)c4ccc([nH]4)c(-c4ccc(N(C)C)cc4)c4nc(c(-c5ccc(N(C)C)cc5)c5ccc2[nH]5)C=C4)C=C3)cc1	>100 µM
CCCCCc1ccc(-c2cc3cn(COCCO)c(=O)nc3o2)cc1	>100 µM
Cc1cc(SC2=C(O)CC(CCc3ccc(O)cc3)(C(C)C)OC2=O)c(C(C)(C)C)cc1OS(C)(=O)=O	>100 µM
COc1cccc(-c2c3nc(c(-c4cccc(OC)c4)c4ccc([nH]4)c(-c4cccc(OC)c4)c4nc(c(-c5cccc(OC)c5)c5ccc2[nH]5)C=C4)C=C3)c1	>100 µM
Cc1c(-c2c(C)c(=O)c3c(C(C)C)c(=O)c(=O)c(C=O)c-3c2=O)c(O)c2c(C=O)c(O)c(O)c(C(C)C)c2c1O	>100 µM
Cc1ccc(-c2ccc3c(c2)C=C(C(=O)Nc2ccc(C[N+](C)(C)C4CCOCC4)cc2)CCC3)cc1	>20 µM
Oc1cccc(O)c1-c1c2nc(c(-c3c(O)cccc3O)c3ccc([nH]3)c(-c3c(O)cccc3O)c3nc(c(-c4c(O)cccc4O)c4ccc1[nH]4)C=C3)C=C2	74 µM
Cc1cc(C)nc(Cn2c(=O)ccn(Cc3ccccc3)c2=O)c1	>389 µM
Nc1ncnc2c1ncn2[C@@H]1O[C@H](CO)C=C1F	68.3 µM
C=CCc1ccc(O)c(-c2cc(CC=C)ccc2O)c1	16.1 µM
CCCCCc1ccc(C#Cc2cn(C/C=C/C(O)CO)c(=O)[nH]c2=O)cc1	19.5 µM
Cc1cn([C@H]2C[C@H](N=[N+]=[N-])[C@@H](CO)O2)c(=O)[nH]c1=O	>100 µM
C#C[C@@]1(CO)C=C[C@H](n2cc(C)c(=O)[nH]c2=O)O1	56 µM
O=c1[nH]cnc2c1ncn2[C@H]1CC[C@@H](CO)O1	>100 µM
Nc1ncnc2c1ncn2[C@@H]1C[C@H](OCP(=O)(O)O)CC1(F)F	>100 µM
Cc1cn([C@H]2C[C@H](N=[N+]=[N-])[C@@H](CO)O2)c(=O)[nH]c1=O	>100 µM
Nc1nc(=O)n([C@H]2C=C[C@@H](CO)O2)cc1F	>100 µM
OC[C@@H]1CC[C@H](n2cnc3c(Cl)ncnc32)O1	100 µM
Nc1nc2c(ncn2[C@@H]2C[C@H](OCP(=O)(O)O)CC2(F)F)c(=O)[nH]1	>100 µM
COc1c(OC)c2c3c(c(-c4c(C)cc5c(C(C)C)c(OC)c(OC)c6c5c4OC6=O)c(C)cc3c1C(C)C)OC2=O	>100 µM
Nc1ccn([C@@H]2C[C@@H](O)[C@H](CO)O2)c(=O)n1	>200 µM
CC(=O)O[C@@H]1[C@H](OC(=O)CC(C)C)c2c(ccc3ccc(=O)oc23)OC1(C)C	>3.9 µM

For reference, 4 entries again:

smiles,result
CCCC(=O)c1c(O)c(CC2(C)C(=O)C(C(=O)C(C)CC)=C(O)C(C)=C2O)c(O)c(C)c1OC,>100 µM
CC(C)=CCN1Cc2cc(Cl)cc3[nH]c(=S)n(c23)C[C@@H]1C,20 µM
CCn1cc(C(=O)O)c(=O)c2cc(F)c(N3CCN(c4ccccc4OC)CC3)c(OC(F)F)c21,11 µM
COc1c(OC)c2c3c(c(-c4c(C)cc5c(C(C)C)c(OC)c(OC)c6c5c4OC6=O)c(C)cc3c1C(C)C)OC2=O,>100 µM

CCn: concentration that lowers growth or viability of the cells by n%.